System: Plasmodium falciparum
Experiment: Inhibition of recombinant Plasmodium falciparum falcipain 2 assessed as hydrolysis of Cbz-Phe-Arg-AMC measured after 5 mins at 20 uM by spectrofluorometric method
Procedure, shortened: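 Recombinant falcipain-2 with Cbz-Phe-Arg-AMC substrate in 50 mM sodium acetate, pH 5.5, with 5 mM EDTA and 200 mM NaCl. Released AMC read by fluorescence (ex 380 nm, em 460 nm). Single-concentration screen; compounds giving over 35% inhibition went on to kinetic assays. Run twice.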

For `c1ccc2c(NCCCCCCCCCNc3c4c(nc5ccccc35)CCCC4)c3c(nc2c1)CCCC3`, which inhibition is on record?
Its inhibition is 45.9%.

Reference: ChEMBL document CHEMBL3813673, “Bistacrine derivatives as new potent antimalarials” (Bioorg Med Chem, 2016)
